Assay results published in paper PMC10764798, “A natural biogenic nanozyme for scavenging superoxide radicals” (Nature Communications, 2024).

Target: the molecule itself
Assay: negative-stain TEM and DLS; purified biomineralized ferritin, 0.1 mg/mL; stained with 1% uranyl acetate, JEM-1400 80 kV TEM; DLS at 25 °C; assembly of the subunits into the protein cage

B1: light chain ferritin from Homo sapiens (natural protein, UniProt P02792 1-175, looked up)
chain: MSSQIRQNYSTDVEAAVNSLVNLYLQASYTYLSLGFYFDRDDVALEGVSHFFRELAEEKREGYERLLKMQNQRGGRALFQDIKKPAEDEWGKTPDAMKAAMALEKKLNQALLDLHALGSARTDPHLCDFLETHFLDEEVKLIKKMGDHLTNLHRLGGPEAGLGEYLFERLTLKHD
notes: Homopolymer cage; also called LFn; source: E. coli BL21(DE3), pet22b, ferrous salt added to the medium (biomineralized), purified; copies: 24
B1: binds.
